Measured values as given in article PMC13630248 (PLOS Biology, 2026).

Tests used:
[1] = target: Rs4231 RBD (recombinant receptor binding domain of Spike) (Bat SARS-like coronavirus Rs4231, UniProt A0A2D1PXA9, strain); settings: both partners purified
[2] = target: RacCS203 RBD (recombinant receptor binding domain of Spike) (Bat coronavirus RacCS203, strain); settings: both partners purified
[3] = target: RacCS203 Spike, full-length, on the cell surface (Bat coronavirus RacCS203, strain); settings: one partner purified
[4] = target: Rs4231 Spike, full-length, on the cell surface (Bat SARS-like coronavirus Rs4231, UniProt A0A2D1PXA9, strain); settings: one partner purified
[5] = target: Rf1/2004 Spike, full-length, on the cell surface (Bat SARS CoV Rf1/2004, UniProt Q0QDZ0, strain); settings: one partner purified

Measured: binding result

B1: V1WT_41 IgG (antibody, V domains shown)
VH: QVQLQESGPGLVKPSETVSVTCTVSGGSITRSNYYWGWIRQPPGKGLEWIGSIFYNGNTNYNPSLKSRLTISVDTSKNQFSLKLSSVTAADTAVYYCARTAPYYYDRSGYYQKEEYFQRWGQGTLVTVSS
VL: EIVMTQSPSTLSASVGDRVTITCRASQSISTWLAWYQQKPGKAPNLLIYQASSLESGVPSRFSGSGSGTEFTLTISSLQPDDFATYYCQQYNNYPRTFGQGTKLEIK
notes: copies: 2 + 2
binds: all assays above

B2: VA14_26 IgG (antibody, V domains shown)
VH: QVQLQQWGAGLLKPSDTLSLTCGISGGPFSGYYWSWIRQPPGKGLEWLGEINHSGITTYNPSLKSRGTISVDTSKRQISLKLASVTAADTAVYYCARFAYGDYGWDYSSDMDVWGKGTTVTVSS
VL: DIQLTQSPSTLSASVGDRVTITCRASQSISTWLAWHQQIPGKAPKLLIYRASTLQSGVPSRFSGSGSGTEFTLTISSLQPDDFATYYCQQYYSVRTFGQGTKVDIK
notes: copies: 2 + 2
not listed: [2]
binds: all other assays above

B3: V1WT_06 IgG (antibody, V domains shown)
VH: EVQLVQSGAEVKKPGASVKVSCKASGYTFSSHGISWVRQAPGQGLEWMGWISTYNGNTNSAQNLQGRVTMTADTSTSTAYMELRSLRSDDTAVYYCARGPWGYCSGTSCYYWTPDNPAYSYHGMDVWGQGTTVTVSS
VL: not shown
notes: copies: 2 + 2
not listed: [2]
binds: all other assays above
